Protein sequences can lack the tags named with them.
Tests used:
[1] = system: T1, Zur (Pseudomonas aeruginosa); experiment: EMSA; details: Zn; EMSA: 25 ng DNA per reaction, buffer as in earlier work (ref 7, not given), Zn added; recombinant protein; residues 1-167; probe letters rebuilt from the primers and the genome
T1 sequence (looked up): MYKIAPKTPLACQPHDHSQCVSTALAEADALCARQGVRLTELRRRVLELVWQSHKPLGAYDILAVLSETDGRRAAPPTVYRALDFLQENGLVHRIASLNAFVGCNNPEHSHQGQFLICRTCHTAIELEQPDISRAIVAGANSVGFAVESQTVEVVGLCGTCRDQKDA

[2] = system: T1, Zur (Pseudomonas aeruginosa); experiment: DNase I footprinting; details: 5 uM Zn, 1 uM Zur, footprint: 50 ng DNA, 40 uL EMSA buffer, 30 min room temperature, recombinant protein, residues 1-167, label: 5' 6FAM on either strand (labelled independently), probe letters rebuilt from the primers and the genome

Row | Sequence | binding result [1] | binding result [2]
1 | GCCAGATCTGTTCGCCCCTATATAAAGTATGGATTCATTTGCAAGTAAATGTTTAAGTGCATTGCTATAAAGTTACATTTCGGGCGTTGCCTGGATAGAATCCTGGAAATGTAATTTCATATCGTTGCGCTGCTTCGATGATAATTATCGAATGACCGGGTAGTTCTCCCGGGAGACCGCCTGAGAACTTTGGAAATGTCCGCGGCGCAAGCACCGCTGGGCGTGAGGGGCAATGCCTTTTGTAAGCGCATGTTGCTTTTGTCCCTATGTTTCATCCAACTATTGCCAGTCTCTTCGAAGGTTGCCGAAGTGGTACCGGC (double strand) [czcR 5'-UTR wt] | binds | –
2 | ACTTCGGCAACCTTCGAAGAGACTGGCAATAGTTGGATGAAACATAGGGACAAAAGCAACATGCGCTTACAAAAGGCATTGCCCCTCACGCCCAGCGGTGCTTGCGCCGCGGACATTTCCAAAGTTCTCAGGCGGTCTCCCGGGAGAACTACCCGGTCATTCGATAATTATCATCGAAGCAGCGCAACGATATGAAATTACATTTCCAGGATTCTATCCAGGCAACGCCCGAAATGTAACTTTATAGCAATGCACTTAAACATTTACTTGCAAATGAATCCATACTTTATATAGGGGCGAACATGCGCATCCTTATTATCGAAGATGAAGTCAAGACTGCCGACTACCTGCACC (double strand) [czcR promoter footprint probe] | – | binds

From article PMC9827704
